Anti-infective test results gathered from many reports (values: NIAID ChemDB through PubChem).

All rows: growth or infection tests; species: Mycobacterium tuberculosis

Lines come from different laboratories, so protocols vary. ECn is the concentration giving n% inhibition of infection, replication or growth. MIC50, MIC90 and the like: level of inhibition, or share of isolates inhibited. MIC bound comes from a single tested concentration. Inhibition is in % at the dose shown (toxicity tests: loss of growth or viability). An empty or dashed field is not shown.

smiles	mutations	method	dose	strain or isolate	setting	endpoint	cells	value
Cc1ccc2c(c1)C(=O)C(=O)N2CCCCCN1CCN(c2ccnc3cc(Cl)ccc23)CC1				MC2 6230		MIC99		52.52 µM
C=C(C)[C@@H]1CC[C@]2(C(=O)O)CC[C@]3(C)C(CCC4[C@@]5(C)CC[C@H](OC(=O)/C=C/c6ccc(O)cc6)C(C)(C)C5CC[C@]43C)C12		resazurin		H37Ra		MIC		6.25 µg/mL
Cc1ccc(N2CCN(C(N)=S)CC2)cc1Cl		BACTEC	12.5 µg/mL	H37Rv		inhibition		11%
O=C1C(=O)N(CCCCCCCN2CCN(c3ccnc4cc(Cl)ccc34)CC2)c2ccc(F)cc21				MC2 6230		MIC99		38.24 µM
CC(=O)N1C(=O)/C(=C\C(=O)c2ccc([N+](=O)[O-])cc2)c2ccccc21		visual reading		H37Rv		MIC		8 µg/mL
COc1ccc(Cc2nccc3cc(OC)c(OC)cc23)cc1OC		BACTEC		H37Rv		MIC bound		>128 µg/mL
N#Cc1cccc(CSc2ncn[nH]2)c1				My 331/88		MIC		>1000 µM
NNC(=O)c1ccncc1				MC2 6230		MIC99		0.18 µM
O=C1NC(Nc2ccccc2)=N/C1=C\c1ccccc1Cl				H37Rv		MIC		>12.5 µg/mL
Oc1ccc(/C=C/c2cc(O)cc(O)c2)cc1						MIC		128 µg/mL
Nc1ccc(C(=O)O)c(O)c1			0.76 µM	7800		inhibition		74%
Cc1ccc(CSc2ncn[nH]2)cc1				My 331/88		MIC		1000 µM
CO[C@H]1/C=C/O[C@@]2(C)Oc3c(C)c(O)c4c(O)c(c(/C=N/N5CCN(C)CC5)c(O)c4c3C2=O)NC(=O)/C(C)=C\C=C\[C@H](C)[C@H](O)[C@@H](C)[C@@H](O)[C@@H](C)[C@H](OC(C)=O)[C@@H]1C	513Pro					MIC99		>640 µg/mL
C[C@H](N)C(=O)N[C@@H](CB(O)O)Cc1ccccc1		agar		H37Rv		MIC		≤500 µg/mL
OC[C@H]1O[C@@H](n2cnc3c(-c4ccco4)ncnc32)[C@H](O)[C@@H]1O				H37Rv		EC50		>6.25 µg/mL
NNC(=O)c1ccncc1		fluorescence / absorbance		H37Rv		EC50		0.47 µM
O=C1NC(=NCc2ccc(Cl)cc2)N/C1=C\c1c(Cl)cccc1Cl			12.5 µg/mL	H37Rv		inhibition		0%
C/C(=C\CC[C@H](C)[C@@H]1CC[C@]2(C)C3=CCC4C(C)(C)C(O)CC[C@]4(C)C3CC[C@@]12C)C(=O)O						MIC		32 µg/mL
Clc1ccc(/C(=C\c2ccccc2)Cn2ccnc2)cc1		resazurin		H37Rv		MIC bound		<6.25 µg/mL
c1ccc(Cn2cnc3c(-c4cccs4)ncnc32)cc1				H37Rv		EC50	VERO	<6.25 µg/mL
O=C1C(=O)N(CCCCCCN2CCN(c3ccnc4cc(Cl)ccc34)CC2)c2ccc(F)cc21				MC2 6230		MIC99		<10.12 µM
O=[N+]([O-])c1ccc(F)c(N=Cc2ccc([N+](=O)[O-])o2)c1		visual reading		H37Rv		MIC		8 µg/mL
C[C@@H](B1OC2CC3CC(C3(C)C)[C@@]2(C)O1)[C@@H](Cc1ccccc1)NC(=O)C(N)Cc1ccccc1				H37Rv		MIC		≤50 µg/mL
CCOC(=O)CN1C(=O)S/C(=C/c2ccc([N+](=O)[O-])o2)C1=O		BACTEC		H37Rv		MIC bound		≤12.5 µg/mL
O=C1C(=O)N(CC#CCN2CCN(c3ccnc4cc(Cl)ccc34)CC2)c2ccc(F)cc21				MC2 6230		MIC99		>216 µM
Cc1[nH]n(-c2ccc(OCc3ccccc3)nn2)c(=O)c1Cc1ccccc1		visual reading		H37Rv		MIC		1 µg/mL
C[C@H](N)C(=O)N[C@@H](CB1OC2CC3CC(C3(C)C)[C@@]2(C)O1)c1ccccc1		agar		H37Rv		MIC		≤500 µg/mL
COc1ccc(/C=C/C(=O)O[C@H]2CC[C@@]3(C)C(CC[C@]4(C)C3CC=C3C5[C@@H](C)[C@H](C)CC[C@]5(C(=O)O)CC[C@]34C)C2(C)C)cc1		resazurin		H37Ra		MIC		100 µg/mL
C=C1C(=O)O[C@@H]2/C=C(\COC(=O)CC(C)C)CC/C=C(\C)CCC12						MIC		16 µg/mL
CC1(C)C2CC3OB(C[C@@H](Cc4ccccc4)NC(=O)[C@@H](N)Cc4ccccc4)O[C@]3(C)C1C2		agar		H37Rv		MIC		≤500 µg/mL
O=C1NC(=Nc2ccccc2Cl)N/C1=C\c1c(Cl)cccc1Cl			12.5 µg/mL	H37Rv		inhibition		0%
NC(=S)c1cccc(CSc2ncn[nH]2)c1				My 331/88		MIC		1000 µM
Cc1ccc(Oc2nc3ccccc3cc2C2C(C#N)=C(N)Oc3c2c(=O)oc2ccc(C)cc32)cc1			250 µg/mL	H37Rv		inhibition		45%
N#Cc1ccc(CSc2ncn[nH]2)cc1				My 331/88		MIC		>1000 µM
CC(=O)NC[C@H]1CN(c2ccc(N3CCOCC3)c(F)c2)C(=O)O1				10 isolates (isoniazid rifampin-resistant)		MIC90		0.5 µg/mL
O=C1NC(=Nc2ccc(Cl)cc2Cl)N/C1=C\c1ccccc1Cl				H37Rv		MIC		>12.5 µg/mL
O=C1C(=O)N(CCCCCN2CCN(c3ccnc4cc(Cl)ccc34)CC2)c2ccc(F)cc21				MC2 6230		MIC99		<10.41 µM
O=C1NC(Nc2cccc(Cl)c2)=N/C1=C\c1ccc(Cl)cc1Cl			12.5 µg/mL	H37Rv		inhibition		48%
CCNC(=S)S		BACTEC	12.5 µg/mL	H37Rv		inhibition		35%
OC[C@H]1O[C@@H](n2cnc3c(-c4cccs4)ncnc32)[C@H](O)[C@@H]1O				H37Rv		EC50		>6.25 µg/mL
Cc1ccc2oc(=O)c3c(c2c1)OC(N)=C(C#N)C3c1cc2ccccc2nc1Oc1ccccc1			250 µg/mL	H37Rv		inhibition		91%
CC1=NN(c2ccc([N+](=O)[O-])cc2)C(=O)C1[N+](=O)[O-]		BACTEC		H37Rv		MIC		≥12.8 µg/mL
c1ccc(CCn2cnc3c(-c4ccco4)ncnc32)cc1				H37Rv		EC50		>6.25 µg/mL
Fc1ccc(CSc2ncn[nH]2)cc1				My 331/88		MIC		500 µM
COc1cc2cc[n+]3c(C)c4ccc(OC)c(OC)c4cc3c2cc1OC.O=C([O-])CS(=O)(=O)O		BACTEC		H37Rv		MIC		≥12.5 µg/mL
C=C(C)[C@@H]1CC[C@]2(C(=O)O)CC[C@]3(C)C(CCC4[C@@]5(C)CC[C@H](OC(=O)/C=C/c6ccc(OC(C)=O)c(OC(C)=O)c6)C(C)(C)C5CC[C@]43C)C12		resazurin		H37Ra		MIC		200 µg/mL
COc1ccc2c(ccc3nc(CCC(=O)O)n(C)c(=O)c32)c1		BACTEC	12.5 µg/mL	H37Rv		inhibition		7%
c1ccc(-c2ncnc3c2ncn3C2CCOCC2)cc1				H37Rv		EC50		>6.25 µg/mL
C[C@H](CB1OC2CC3CC(C3(C)C)[C@@]2(C)O1)NC(=O)[C@@H](N)CCCCN				H37Rv		MIC		≤500 µg/mL
Cn1cnc2c(-c3ccco3)ncnc21				H37Rv		EC50		>6.25 µg/mL
C[C@@H](B1OC2CC3CC(C3(C)C)[C@@]2(C)O1)[C@@H](Cc1ccccc1)NC(=O)[C@@H](N)CCCCN		agar		H37Rv		MIC		≤50 µg/mL
Cc1c(C(N)=O)[n+](=O)c2ccccc2n1[O-]				H37Rv		MIC		1 µg/mL
CC1(C)C2CC3OB(C[C@@H](Cc4ccccc4)NC(=O)[C@H](N)CCCCN)O[C@]3(C)C1C2		agar		H37Rv		MIC		≤500 µg/mL
O=C(NN=C1CCCCC1)c1ccncc1				H37Rv		MIC		0.03 µg/mL
C[C@@H](NC(=O)[C@@H](N)Cc1ccccc1)[C@@H](Cc1ccccc1)B1OC2CC3CC(C3(C)C)[C@@]2(C)O1				H37Rv		MIC		≤50 µg/mL
CC1=NN(c2cc(Cl)c(S(=O)(=O)O)cc2Cl)C(=O)C1		resazurin	6.25 µg/mL	H37Rv		inhibition		-23%
c1ccc(P(CCc2ccccn2)c2ccccc2)cc1		broth dilution / visual reading		H37Rv	7 d	MIC99		160 µM
Clc1ccc2c(c1)N(CCCN1CCCC13CCCCC3)c1ccccc1S2		BACTEC		H37Rv		MIC bound		≤12.5 µg/mL
Cc1c(C)[n+](=O)c2ccccc2n1[O-]				H37Rv		MIC		31.2 µg/mL
CC1C(=NO)C(C)C(c2ccccc2)N(N=O)C1c1ccccc1		resazurin	6.25 µg/mL	H37Rv		inhibition		32%
Clc1cccc(CSc2ncn[nH]2)c1				My 331/88		MIC		500 µM
CC(=O)/C(=C/C=C/c1ccccc1)[N+](=O)[O-]		visual reading		H37Rv		MIC		16 µg/mL
CCOC(=O)CC/C(C)=N/NC(=O)c1ccc[n+](C)c1.Cc1ccc(S(=O)(=O)O)cc1		BACTEC		H37Rv		MIC bound		>12.5 µg/mL
C=C1C(OC(=O)C(C)C)C[C@H]2C(=C)CC[C@H]3C(=C)C(=O)O[C@@H]3[C@@H]12						MIC		32 µg/mL
NC(N)=NNC(=S)S		BACTEC	128 µg/mL	H37Rv		inhibition		100%
Cc1ccc2nc(Oc3ccccc3)c(C3C(C#N)=C(N)Oc4c3c(=O)oc3ccccc43)cc2c1			250 µg/mL	H37Rv		inhibition		52%
CC(=O)OCC1OC(OC(C)=O)C(On2nnc3c(-c4ccccc4)c(C)nn32)C(OC(C)=O)C1OC(C)=O		BACTEC	128 µg/mL	H37Rv		inhibition		86%
Cn1cnnc1SCc1ccc(C(N)=S)cc1				My 331/88		MIC		500 µM
Cn1c(/N=C(\N)N=C(N)N)cc(=O)n(C)c1=O		resazurin	6.25 µg/mL	H37Rv		inhibition		9%
CCOC(=O)c1c(C)n([O-])c2ccccc2[n+]1=O				H37Rv		MIC		31.2 µg/mL
CO[C@H]1/C=C/O[C@@]2(C)Oc3c(C)c(O)c4c(O)c(c5c(c4c3C2=O)NC2(CCN(CC(C)C)CC2)N=5)=NC(=O)/C(C)=C\C=C\[C@H](C)[C@H](O)[C@@H](C)[C@@H](O)[C@@H](C)[C@H](OC(C)=O)[C@@H]1C				Strain 100 (S531L)		MIC		0.125 µg/mL
COc1ccc2nc(Oc3ccc(Cl)cc3)c(C3C(C#N)=C(N)Oc4c3c(=O)oc3ccccc43)cc2c1			250 µg/mL	H37Rv		inhibition		32%
COC(=O)C1C2CC3c4c(c5ccc(OC)cc5n4[N+](=O)[O-])CCN3CC2CC(OC(=O)c2cc(OC)c(OC)c(OC)c2)C1OC		BACTEC		H37Rv		MIC		≥12.5 µg/mL
O=[n+]1c(CO)c(CO)n([O-])c2ccccc21				H37Rv		MIC		31.2 µg/mL
NNC(=O)CNC(=O)c1ccc(Cl)cc1Cl		BACTEC		H37Rv		MIC bound		>12.5 µg/mL
O=C1C(=O)N(CC#CCN2CCN(c3ccnc4cc(Cl)ccc34)CC2)c2ccc(Cl)cc21				MC2 6230		MIC99		136 µM
COc1cccc(CSc2ncn[nH]2)c1				My 331/88		MIC		1000 µM
COc1cc(/C=C/C(=O)O[C@H]2CC[C@@]3(C)C(CC[C@]4(C)C3CC=C3C5CC(C)(C)CC[C@]5(C(=O)O)CC[C@]34C)C2(C)C)ccc1O		resazurin		H37Ra		MIC		12.5 µg/mL
CN(C)CCCN1c2ccc(O)cc2Sc2ccc(Cl)cc21				H37Rv		MIC		6.25 µg/mL
O=C(/C=C/c1ccco1)Nc1ccc(-c2nc3ccccc3[nH]2)cc1		visual reading		H37Rv		MIC		>16 µg/mL
CCO/C=N/c1c(C#N)c(-c2ccc(Cl)cc2)cn1-c1ccc(C)cc1		BACTEC		H37Rv		MIC bound		>12.5 µg/mL
Nc1ccc(NC2=C(N3CCCCC3)C(=O)c3ccccc3C2=O)cc1		visual reading		H37Rv		MIC		8 µg/mL
O=[N+]([O-])c1cc(C(F)(F)F)ccc1S(=O)(=O)NC1CCCCC1NS(=O)(=O)c1ccc(C(F)(F)F)cc1[N+](=O)[O-]		resazurin	6.25 µg/mL	H37Rv		inhibition		-1%
O=c1[nH]c(=S)[nH]c(O)c1C=Nc1cc(Cl)ccc1O		visual reading		H37Rv		MIC		4 µg/mL

The first 7 rows once more:

smiles,mutations,method,dose,strain or isolate,setting,endpoint,cells,value
Cc1ccc2c(c1)C(=O)C(=O)N2CCCCCN1CCN(c2ccnc3cc(Cl)ccc23)CC1,,,,MC2 6230,,MIC99,,52.52 µM
C=C(C)[C@@H]1CC[C@]2(C(=O)O)CC[C@]3(C)C(CCC4[C@@]5(C)CC[C@H](OC(=O)/C=C/c6ccc(O)cc6)C(C)(C)C5CC[C@]43C)C12,,resazurin,,H37Ra,,MIC,,6.25 µg/mL
Cc1ccc(N2CCN(C(N)=S)CC2)cc1Cl,,BACTEC,12.5 µg/mL,H37Rv,,inhibition,,11%
O=C1C(=O)N(CCCCCCCN2CCN(c3ccnc4cc(Cl)ccc34)CC2)c2ccc(F)cc21,,,,MC2 6230,,MIC99,,38.24 µM
CC(=O)N1C(=O)/C(=C\C(=O)c2ccc([N+](=O)[O-])cc2)c2ccccc21,,visual reading,,H37Rv,,MIC,,8 µg/mL
COc1ccc(Cc2nccc3cc(OC)c(OC)cc23)cc1OC,,BACTEC,,H37Rv,,MIC bound,,>128 µg/mL
N#Cc1cccc(CSc2ncn[nH]2)c1,,,,My 331/88,,MIC,,>1000 µM